According to patent publication US20230381142A1, “ANTILEISHMANIAL COMPOUNDS, COMPOSITIONS AND USE THEREOF” (TRUSTEES OF BOSTON UNIVERSITY, priority 2022, published 2023):

System: L. donovani intracellular amastigotes infecting THP-1 macrophages
Experiment: GSK intramacrophage L. donovani assay (LD AMMAC, inMac; Assay Conditions C)
Format: cell-based, Leishmania donovani
Conditions: for SI MAC: (LD MAC EC50)/(LD AMMAC EC50)
Outline: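 L. donovani amastigotes within THP-1 macrophages; EC50 based on average intracellular amastigotes per infected cell (AMMAC). Infected-cell percentage (INFCELL) and host-cell number (MAC) also read, the latter as toxicity output.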

[1] = rows whose L. donovani EC50 is in THP-1 cells (c)

Structure (SMILES) | SI MAC | other results
COc1ccc(N2C(=O)c3[nH]nc(CC(C)C)c3C2c2cccnc2OC)cc1 (stereo not drawn) [CMLD0011576] |  | SI Host cell potency/L. donovani potency [1]: 0.4
COc1ccc(N2C(=O)c3[nH]nc(CC(C)C)c3C2c2cnccc2OC)cc1 (stereo not drawn) [CMLD011577] |  | SI Host cell potency/L. donovani potency [1]: 2.0
COc1ccc(N2C(=O)c3[nH]nc(CC(C)C)c3C2c2ncccc2OC)cc1 (stereo not drawn) [CMLD011578] |  | SI Host cell potency/L. donovani potency [1]: <0.2
COc1ccc(N2C(=O)c3[nH]nc(CC(C)C)c3C2c2cnccc2Cl)cc1 (stereo not drawn) [CMLD011579] |  | SI Host cell potency/L. donovani potency [1]: <0.2
COc1ccc(N2C(=O)c3[nH]nc(CC(C)C)c3[C@H]2c2ccc(F)cc2)cc1 [CMLD013629] |  | SI Host cell potency/L. donovani potency (THP-1 CC50 / L. donovani EC50 (THP-1)): 2.5
COc1ccc(N2C(=O)c3[nH]nc(CC(C)C)c3C2c2ccc(F)c(F)c2)cc1 (stereo not drawn) [CMLD013640] |  | SI Host cell potency/L. donovani potency [1]: 5.0
COc1ccc(N2C(=O)c3[nH]nc(CC(C)C)c3C2c2ccccc2)cc1 (stereo not drawn) [Compound 2] | 9.9 | 
COc1ccc(N2C(=O)c3[nH]nc(CCC(C)C)c3C2c2ccc(F)cc2)cc1 (stereo not drawn) [Compound 9] | 12.6 | 
COc1ccc(N2C(=O)c3[nH]nc(CC(C)(C)C)c3C2c2ccc(F)cc2)cc1 (stereo not drawn) [Compound 10] | 10.0 | 
C=CCCc1n[nH]c2c1C(c1ccc(F)cc1)N(c1ccc(OC)cc1)C2=O (stereo not drawn) [Compound 12] | 2.0 | 
C=C(C)CCc1n[nH]c2c1C(c1ccc(F)cc1)N(c1ccc(OC)cc1)C2=O (stereo not drawn) [Compound 13] | 3.2 | 
C=C(C)CCCc1n[nH]c2c1C(c1ccc(F)cc1)N(c1ccc(OC)cc1)C2=O (stereo not drawn) [Compound 14] | 3.2 | 
COc1ccc(N2C(=O)c3[nH]nc(CCc4ccccc4)c3C2c2ccc(F)cc2)cc1 (stereo not drawn) [Compound 15] | 4.0 | 
COc1ccc(N2C(=O)c3[nH]nc(-c4ccc5c(c4)CCC5)c3C2c2ccc(F)cc2)cc1 (stereo not drawn) [Compound 16] | 1.6 | 
COc1ccc(N2C(=O)c3[nH]nc(-c4ccc(CC(C)C)cc4)c3C2c2ccc(F)cc2)cc1 (stereo not drawn) [Compound 17] | 2.0 | 
CC(C)Cc1n[nH]c2c1C(c1ccc(F)cc1)N(c1ccc(O)cc1)C2=O (stereo not drawn) [Compound 18] | 8.0 | 
CCOc1ccc(N2C(=O)c3[nH]nc(CC(C)C)c3C2c2ccc(F)cc2)cc1 (stereo not drawn) [Compound 19] | 12.5 | 
CC(C)Cc1n[nH]c2c1C(c1ccc(F)cc1)N(c1ccc(OC(F)(F)F)cc1)C2=O (stereo not drawn) [Compound 20] | 2.5 | 
CC(C)Cc1n[nH]c2c1C(c1ccc(F)cc1)N(c1ccc(N(C)C)cc1)C2=O (stereo not drawn) [Compound 21, 5-(4-(dimethylamino)phenyl)-4-(4-fluorophenyl)-3-isobutyl-4,5-dihydropyrrolo[3,4-c]pyrazol-6(1H)-one] | 39.8 | 
CCc1ccc(N2C(=O)c3[nH]nc(CC(C)C)c3C2c2ccc(F)cc2)cc1 (stereo not drawn) [Compound 22] | 5.0 | 
CC(C)Cc1n[nH]c2c1C(c1ccc(F)cc1)N(c1ccc(F)cc1)C2=O (stereo not drawn) [Compound 23] | 4.0 | 
CC(C)Cc1n[nH]c2c1C(c1ccc(F)cc1)N(c1ccc(Br)cc1)C2=O (stereo not drawn) [Compound 24, 5-(4-bromophenyl)-4-(4-fluorophenyl)-3-isobutyl-4,5-dihydropyrrolo[3,4-c]pyrazol-6(1H)-one] | 12.2 | 
CC(C)Cc1n[nH]c2c1C(c1ccc(F)cc1)N(c1ccc(C(C)(C)C)cc1)C2=O (stereo not drawn) [Compound 25] | >5.0 | 

Structure (SMILES) | SI MAC | other results
COC(=O)c1ccc(N2C(=O)c3[nH]nc(CC(C)C)c3C2c2ccc(F)cc2)cc1 (stereo not drawn) [Compound 26] | 20.0 | 
COc1ccccc1N1C(=O)c2[nH]nc(CC(C)C)c2C1c1ccc(F)cc1 (stereo not drawn) [Compound 29] | >2.5 | 
COc1cccc(N2C(=O)c3[nH]nc(CC(C)C)c3C2c2ccc(F)cc2)c1 (stereo not drawn) [Compound 30] | 2.5 | 
COc1ccc(N2C(=O)c3[nH]nc(CC(C)C)c3C2c2ccc(F)cc2)cn1 (stereo not drawn) [Compound 31] | >5.0 | 
CC(C)Cc1n[nH]c2c1C(c1ccc(F)cc1)N(c1cccnc1)C2=O (stereo not drawn) [Compound 32] | >2.0 | 
CC(C)Cc1n[nH]c2c1C(c1ccc(F)cc1)N(c1ccccn1)C2=O (stereo not drawn) [Compound 33] | >2.5 | 
COc1ccc(CN2C(=O)c3[nH]nc(CC(C)C)c3C2c2ccc(F)cc2)cc1 (stereo not drawn) [Compound 34] | >2.5 | 
Cc1ccc(CN2C(=O)c3[nH]nc(CC(C)C)c3C2c2ccc(F)cc2)o1 (stereo not drawn) [Compound 35] | >2.5 | 
COC1CCC(N2C(=O)c3[nH]nc(CC(C)C)c3C2c2ccc(F)cc2)CC1 (stereo not drawn) [Compound 36] | >2.0 | 
CC(C)Cc1n[nH]c2c1C(c1ccc(F)cc1)N(C1CCC(N(C)C)CC1)C2=O (stereo not drawn) [Compound 37] | >2.0 | 
CC(C)Cc1n[nH]c2c1C(c1ccc(F)cc1)N(C1CCOCC1)C2=O (stereo not drawn) [Compound 38] | >1.6 | 
CC(C)Cc1n[nH]c2c1C(c1ccc(F)cc1)N(CCN1CCCC1)C2=O (stereo not drawn) [Compound 39] | >3.2 | 
CC(C)Cc1n[nH]c2c1C(c1ccc(F)cc1)N(CC1CCN(C)C1)C2=O (stereo not drawn) [Compound 40] | >1.0 | 
COCCN1C(=O)c2[nH]nc(CC(C)C)c2C1c1ccc(F)cc1 (stereo not drawn) [Compound 41] | >1.0 | 
COc1ccc(N2C(=O)c3[nH]nc(CC(C)C)c3C2c2ccc(F)cc2)cc1F (stereo not drawn) [Compound 42, 5-(3-fluoro-4-methoxyphenyl)-4-(4-fluorophenyl)-3-isobutyl-4,5-dihydropyrrolo[3,4-c]pyrazol-6(2H)-one] | 19.3 | 
COc1ccc(N2C(=O)c3[nH]nc(CC(C)C)c3C2c2ccc(F)cc2)c(OC)c1 (stereo not drawn) [Compound 43] | 1.6 | 
CC(C)Cc1n[nH]c2c1C(c1ccc(F)cc1)N(c1ccc3c(c1)OCO3)C2=O (stereo not drawn) [Compound 44, 5-(benzo[d][1,3]dioxol-5-yl)-4-(4-fluorophenyl)-3-isobutyl-4,5-dihydropyrrolo[3,4-c]pyrazol-6(1H)-one] | 41.8 | 
CC(C)Cc1n[nH]c2c1C(c1ccc(F)cc1)N(c1ccc3c(c1)OCCO3)C2=O (stereo not drawn) [Compound 45] | 7.9 | 
COc1ccc(N2C(=O)c3[nH]nc(CC(C)C)c3C2c2ccc(Cl)cc2)cc1 (stereo not drawn) [Compound 47] | 4.0 | 
COc1ccc(N2C(=O)c3[nH]nc(CC(C)C)c3C2c2ccc(Br)cc2)cc1 (stereo not drawn) [Compound 48] | 2.5 | 
COc1ccc(N2C(=O)c3[nH]nc(CC(C)C)c3C2c2ccc(C(F)(F)F)cc2)cc1 (stereo not drawn) [Compound 49] | 2.0 | 
COc1ccc(N2C(=O)c3[nH]nc(CC(C)C)c3C2c2ccc(C(=O)O)cc2)cc1 (stereo not drawn) [Compound 50] | 1.0 | 
COC(=O)c1ccc(C2c3c(CC(C)C)n[nH]c3C(=O)N2c2ccc(OC)cc2)cc1 (stereo not drawn) [Compound 51] | 1.6 | 

Structure (SMILES) | SI MAC | other results
COc1ccc(N2C(=O)c3[nH]nc(CC(C)C)c3C2C2CCCCC2)cc1 (stereo not drawn) [Compound 52] | 3.2 | 
COc1ccc(N2C(=O)c3[nH]nc(CC(C)C)c3C2C2CCCC2)cc1 (stereo not drawn) [Compound 53] | 1.6 | 
COc1ccc(N2C(=O)c3[nH]nc(CC(C)C)c3C2c2ccccc2F)cc1 (stereo not drawn) [Compound 54] | 9.9 | 
COc1ccc(N2C(=O)c3[nH]nc(CC(C)C)c3C2c2ccccc2Cl)cc1 (stereo not drawn) [Compound 55, 4-(2-chlorophenyl)-3-isobutyl-5-(4-methoxyphenyl)-4,5-dihydropyrrolo[3,4-c]pyrazol-6(1H)-one] | 15.3 | 
COc1ccc(N2C(=O)c3[nH]nc(CC(C)C)c3C2c2ccccc2Br)cc1 (stereo not drawn) [Compound 56] | 50.2 | 
COc1ccc(N2C(=O)c3[nH]nc(CC(C)C)c3C2c2ccccc2OC)cc1 (stereo not drawn) [Compound 57, 3-isobutyl-4-(2-methoxyphenyl)-5-(4-methoxyphenyl)-4,5-dihydropyrrolo[3,4-c]pyrazol-6(1H)-one] | 50.2 | 
COc1ccc(N2C(=O)c3[nH]nc(CC(C)C)c3C2c2cccc(F)c2)cc1 (stereo not drawn) [Compound 58] | 2.5 | 
COc1ccc(N2C(=O)c3[nH]nc(CC(C)C)c3C2c2cccc(Cl)c2)cc1 (stereo not drawn) [Compound 59] | 5.0 | 
COc1ccc(N2C(=O)c3[nH]nc(CC(C)C)c3C2c2cccc(Br)c2)cc1 (stereo not drawn) [Compound 60] | 3.2 | 
COc1ccc(N2C(=O)c3[nH]nc(CC(C)C)c3C2c2cccc(OC)c2)cc1 (stereo not drawn) [Compound 61] | 5.0 | 
COc1ccc(N2C(=O)c3[nH]nc(CC(C)C)c3C2c2cccc(C(F)(F)F)c2)cc1 (stereo not drawn) [Compound 62] | 2.5 | 
COc1ccc(N2C(=O)c3[nH]nc(CC(C)C)c3C2c2ccc(F)cc2F)cc1 (stereo not drawn) [Compound 63] | 12.6 | 
COc1ccc(N2C(=O)c3[nH]nc(CC(C)C)c3C2c2ccc(F)cc2C)cc1 (stereo not drawn) [Compound 64, 4-(4-fluoro-2-methylphenyl)-3-isobutyl-5-(4-methoxyphenyl)-4,5-dihydropyrrolo[3,4-c]pyrazol-6(1H)-one] | 50.2 | 
COc1ccc(N2C(=O)c3[nH]nc(CC(C)C)c3C2c2ccc(F)c(F)c2)cc1 (stereo not drawn) [Compound 65, 4-(3,4-difluorophenyl)-3-isobutyl-5-(4-methoxyphenyl)-4,5-dihydropyrrolo[3,4-c]pyrazol-6(1H)-one] | 5.0 | 
COc1ccc(N2C(=O)c3[nH]nc(CC(C)C)c3C2c2c(Cl)cccc2Cl)cc1 (stereo not drawn) [Compound 66] | 2.5 | 
COc1ccc(N2C(=O)c3[nH]nc(CC(C)C)c3C2C2CCN(Cc3ccccc3)CC2)cc1 (stereo not drawn) [Compound S1] | 1.3 | 
COc1ccc(N2C(=O)c3[nH]nc(CC(C)C)c3C2c2cccs2)cc1 (stereo not drawn) [Compound S2] | >6.3 | 
COc1ccc(N2C(=O)c3[nH]nc(CC(C)C)c3C2c2ccsc2)cc1 (stereo not drawn) [Compound S3] | >7.9 | 
COc1ccc(N2C(=O)c3[nH]nc(CC(C)C)c3C2c2cncs2)cc1 (stereo not drawn) [Compound S4] | >3.1 | 
COc1ccc(N2C(=O)c3[nH]nc(CC(C)C)c3C2c2nccs2)cc1 (stereo not drawn) [Compound S5] | >2.5 | 
COc1ccc(N2C(=O)c3[nH]nc(CC(C)C)c3C2c2ccncc2)cc1 (stereo not drawn) [Compound S6] | 1.0 | 
COc1ccc(N2C(=O)c3[nH]nc(CC(C)C)c3C2c2ccccn2)cc1 (stereo not drawn) [Compound S7] | >1.6 | 
COc1ccc(N2C(=O)c3[nH]nc(CC(C)C)c3C2c2ccncn2)cc1 (stereo not drawn) [Compound S8] | 1.0 | 
